Results of unrelated studies side by side (data: NIAID ChemDB).

Shared fields: whole-cell or culture tests; agent: Candida albicans; read-out: MIC

An empty or dashed field is not shown. Lines come from different laboratories, so protocols vary.

compound,strain,method,value
C[C@@H]1C(=O)N(c2ccccc2)C(=O)[C@@H]1C,ATCC 10231,broth dilution / turbidity,31.3 µg/mL
CCCCCCCCCCCCCCCC(=O)NC(CCCN)C(=O)NC(CCCN)C(=O)NC(CCCN)C(N)=O,ATCC 24433,broth dilution,3.1 µg/mL
Fc1ccc(-n2ccc(C(c3ccc(Cl)cc3)n3ccnc3)c2)cc1,-,-,2.7 µg/mL
CC1C=C(C23CC4CC(CC(C4)C2)C3)C(=O)O1,ATCC 44859,-,>125 µM
CCCCCCCC(=O)NC(CCCN)C(=O)NC(CCCN)C(=O)NC(CCCN)C(N)=O,ATCC 24433,broth dilution,>100 µg/mL
CC(C)N=C(N)c1ccc2nc(-c3ccc4c(c3)Cc3cc(-c5nc6ccc(C(N)=NC(C)C)cc6[nH]5)ccc3-4)[nH]c2c1,Isolate 2370 fluconazole-resistant,-,1.56 µg/mL
Clc1ccc(CCC(Cn2ccnc2)c2ccc(Cl)cc2Cl)cc1,-,-,10 µg/mL
c1cnc2c(c1)ccc1cccnc12,ATCC 10231,-,300 µg/mL
CC1(C)O[C@H]2O[C@H](C3=NOC(Cc4ccc(O)cc4)C3)[C@H](OCc3ccccc3)[C@H]2O1,-,-,>50 µg/mL
Clc1ccc(CC(Cn2ccnc2)c2c(Cl)cccc2Cl)c(Cl)c1,-,-,>100 µg/mL
C=CCNC(=S)Nc1ccc(S(=O)(=O)Nc2ccc3c(c2)Sc2ccccc2O3)cc1,C316,-,1.1 µg/mL
CCn1c2ccccc2c2cnn(-c3ccccc3)c(=O)c21,-,broth dilution,250 µg/mL
CN1CCN(c2n[nH]c(N3C(=O)CS[C@@H]3c3ccc4c(c3)OCO4)n2)CC1,149.97,broth dilution,1.56 µg/mL
Clc1ccc(C(Cn2ccnc2)OCc2cccc3ccccc23)c(Cl)c1,CA6,-,2 µg/mL
NN=C(N)c1cncc(Cl)n1,-,broth dilution,128 µg/mL
CCCCCCC(Cn1ccnc1)c1ccc(F)cc1,-,-,100 µg/mL
O=c1c2[nH]c3ccccc3c2cnn1-c1ccccc1,-,broth dilution,250 µg/mL
C[C@H]1[C@H](O)[C@@H](C)/C=C/C=C/C=C/C=C/C=C/C=C/C=C/[C@H](O[C@@H]2O[C@H](C)[C@@H](O)[C@H](N)[C@@H]2O)C[C@@H]2O[C@](O)(C[C@@H](O)C[C@@H](O)CC[C@H](O)[C@@H](O)C[C@@H](O)CC(=O)O[C@H]1C)C[C@H](O)[C@H]2C(=O)O,1208E,-,0.008 µg/mL
Clc1ccc(C(Cn2ccnc2)OC/C=C/c2ccccc2)cc1,CA7,-,128 µg/mL
COc1ccc(C(Cc2ccccc2Cl)n2ccnc2)cc1,-,-,63 µg/mL
O=C1CS[C@H](c2ccc(Cl)cc2)N1c1nc(N2CCOCC2)n[nH]1,A39,broth dilution,25 µg/mL
O=C(Nc1ccc2c(c1)Sc1ccccc1O2)c1ccc(Cl)cc1Cl,C316,-,5 µg/mL
C[C@@H]1CC(=O)N(c2ccc(F)cc2F)C1=O,ATCC 10231,broth dilution / turbidity,62.5 µg/mL
CC1C=C(c2ccccc2Cl)C(=O)O1,ATCC 44859,-,>125 µM
C[C@@H]1C(=O)N(CCCc2ccccc2)C(=O)[C@@H]1C,ATCC 10231,broth dilution / turbidity,31.3 µg/mL
O=c1c2[nH]c3ccccc3c2cnn1-c1ccc(Cl)cc1,-,broth dilution,250 µg/mL
CC1CC(=O)N(c2ccc(Br)cc2)C1=O,ATCC 10231,broth dilution / turbidity,250 µg/mL
Clc1ccccc1CC(Cn1ccnc1)c1ccccc1Cl,-,-,100 µg/mL
C[C@H]1[C@H](O)[C@@H](C)/C=C/C=C/C=C/C=C/C=C/C=C/C=C/[C@H](O[C@@H]2O[C@H](C)[C@@H](O)[C@H](N)[C@@H]2O)C[C@@H]2O[C@](O)(C[C@@H](O)C[C@@H](O)CC[C@H](O)[C@@H](O)C[C@@H](O)CC(=O)O[C@H]1C)C[C@H](O)[C@H]2C(=O)O,A28235,-,0.25 µg/mL
CCCCC(Cn1ccnc1)c1c(Cl)cccc1Cl,-,-,100 µg/mL
Clc1ccc(C(c2c[nH]cc2-c2cccc3ccccc23)n2ccnc2)c(Cl)c1,-,-,0.21 µg/mL
CCCCCC(Cn1ccnc1)c1ccc(Cl)cc1,-,-,100 µg/mL
N=C(N)c1ccc2[nH]c(/C=C/c3cc4cc(C(=N)N)ccc4s3)cc2c1,-,-,>60 µg/mL
c1cnc(-c2n[nH]c(-c3cnccn3)n2)cn1,-,broth dilution,>256 µg/mL
CSc1nnc(-c2cccc([N+](=O)[O-])c2)s1,ATCC 10231,-,>100 µg/mL
O=C(Nc1nc2ccc(NC(=O)[C@@H]3CCC[C@H](NCc4ccc5ccccc5c4)C3)cc2s1)C1CCCC1,IFM 5728,-,0.78 µM
CCCCC(Cn1ccnc1)c1ccc(Br)cc1Br,-,-,10 µg/mL
CCC(C)n1ncn(-c2ccc(N3CCN(c4ccc(OC[C@H]5CO[C@](Cn6cncn6)(c6ccc(Cl)cc6Cl)O5)cc4)CC3)cc2)c1=O,E81022,-,0.05 µg/mL
Cc1c(O)cccc1C(=O)N[C@@H](CSc1ccccc1)[C@H](O)CN1C[C@H]2CCCC[C@H]2C[C@H]1C(=O)NC(C)(C)C,I63D,-,>64 µg/mL
Cc1ccc2c(c1)c1nnc(N3CC[N+](C)([O-])CC3)nc1n2C,1208E,-,>125 µg/mL
N=C(N)c1ccc2cc(C(=N)N)[nH]c2c1,-,-,>60 µg/mL
C[C@@H](SC1COC(/C=C/C=C/c2ccc(C#N)cc2F)OC1)[C@](O)(Cn1cncn1)c1ccc(F)cc1F,CAL-0045,-,>16 µg/mL
Cc1ccc(S(=O)(=O)Nc2ccc3c(c2)Sc2ccccc2O3)cc1,C316,-,9 µg/mL
N=C(N)c1ccc(Nc2cc3cc(C(=N)N)ccc3[nH]2)cc1,-,-,>60 µg/mL
Cc1ccc(S(=O)(=O)NC(=O)Nc2ccc(S(=O)(=O)Nc3ccc4c(c3)Sc3ccccc3O4)cc2)cc1,C316,-,0.8 µg/mL
CO[C@@H]1C[C@H](C[C@@H](C)[C@@H]2CC(=O)[C@H](C)/C=C(\C)[C@@H](O)[C@@H](OC)C(=O)[C@H](C)C[C@H](C)/C=C/C=C/C=C(\C)[C@H](N(OC)C(=O)N(C)C)C[C@@H]3CC[C@@H](C)[C@@](O)(O3)C(=O)C(=O)N3CCCC[C@H]3C(=O)O2)CC[C@H]1C(=O)ON(C)O,579A,-,>100 µg/mL
CC(C)(C)c1ccc(COC(Cn2ccnc2)c2ccccc2)cc1,PR1,-,128 µg/mL
CS(=O)(=O)c1nnc(-c2ccccc2[N+](=O)[O-])s1,ATCC 10231,-,25 µg/mL
CC1C=C(c2ccc(Br)c3ccccc23)C(=O)O1,ATCC 44859,-,>125 µM
Cc1ccc(C(Cn2ccnc2)OCc2ccc(-c3ccccc3)cc2)cc1,CA6,-,128 µg/mL
COc1ccc(CC2CC([C@H]3O[C@@H]4OC(C)(C)O[C@@H]4[C@H]3OCc3ccccc3)=NO2)cc1,-,-,>50 µg/mL
COc1ccc(-n2ncc3c4ccccc4n(C)c3c2=O)cc1,-,broth dilution,250 µg/mL
CCCCCC(Cn1ccnc1)c1ccccc1Cl,-,-,>100 µg/mL
Cc1ccc(C(Cn2ccnc2)OCc2ccc(C(C)(C)C)cc2)cc1,CA7,-,>128 µg/mL
CCCCCCCCCCCC(=O)NC(CCCN)C(=O)NC(CCCN)C(N)=O,ATCC 24433,broth dilution,50 µg/mL
CO[C@H]1C[C@@H]2CC[C@@H](C)[C@@](O)(O2)C(=O)C(=O)N2CCCC[C@H]2C(=O)O[C@H]([C@H](C)C[C@@H]2CC[C@@H](C(=O)ON3CCOCC3)[C@H](OC)C2)CC(=O)[C@H](C)/C=C(\C)[C@@H](O)[C@@H](OC)C(=O)[C@H](C)C[C@H](C)CCCC/C=C/1C,38247,-,>100 µg/mL
CCCCC(Cn1ccnc1)c1ccccc1Br,-,-,100 µg/mL
CO[C@@H]1C[C@H](C[C@@H](C)[C@@H]2CC(=O)[C@H](C)/C=C(\C)[C@@H](O)[C@@H](OC)C(=O)[C@H](C)C[C@H](C)/C=C/C=C/C=C(\C)[C@H](N(O)C(N)=O)C[C@@H]3CC[C@@H](C)[C@@](O)(O3)C(=O)C(=O)N3CCCC[C@H]3C(=O)O2)CC[C@H]1C(=O)ON(C)O,579A,-,100 µg/mL
CCC1C=C(c2cccc(Cl)c2)C(=O)O1,ATCC 44859,-,>125 µM
CC(Cn1ccnc1)c1ccc(Cl)cc1,-,-,>100 µg/mL
Cc1ccc([C@H]2SC(C)C(=O)N2c2nc(N3CCN(C)CC3)n[nH]2)cc1,A39,broth dilution,10 µg/mL
COc1cncc(C(N)=NN)n1,-,broth dilution,>256 µg/mL
CS(=O)c1nnc(Cc2cc([N+](=O)[O-])ccc2-c2ncc[nH]2)s1,ATCC 10231,-,12.5 µg/mL
CCCCCCCCCCCCCCCC(=O)NC(CCCN)C(=O)NC(CCCN)C(N)=O,ATCC 24433,broth dilution,6.25 µg/mL
Clc1ccc(CC(Cn2ccnc2)c2ccccc2Br)c(Cl)c1,-,-,10 µg/mL
C[C@@H]1C(=O)N(CCCCc2ccccc2)C(=O)[C@@H]1C,ATCC 10231,broth dilution / turbidity,62.5 µg/mL
CO[C@@H]1[C@H]2OC(C)(C)O[C@H]2O[C@@H]1C1=NOC(C)C1C(=O)O,-,-,>50 µg/mL
CC1S[C@H](c2ccc(Cl)cc2)N(c2nc(N3CCN(C)CC3)n[nH]2)C1=O,A39,broth dilution,<1 µg/mL
Cc1ccc(N2C(=O)CC(C)C2=O)cc1,ATCC 10231,broth dilution / turbidity,250 µg/mL
CC(=O)Nc1ccc(S(=O)(=O)Nc2ccc3c(c2)Sc2ccccc2O3)cc1,C316,-,7 µg/mL
C(=C\c1ccccc1)/COC(Cn1ccnc1)c1ccccc1,CA12,-,128 µg/mL
COc1cncc(C2=NS(=O)N(c3ccccc3)N2)n1,-,broth dilution,64 µg/mL
CC1CC(=O)N(c2ccc(F)cc2)C1=O,ATCC 10231,broth dilution / turbidity,250 µg/mL
CCCCC(Cn1ccnc1)c1ccc(Cl)cc1,-,-,100 µg/mL
CO[C@H]1C[C@@H]2CC[C@@H](C)[C@@](O)(O2)C(=O)C(=O)N2CCCC[C@H]2C(=O)O[C@H]([C@H](C)C[C@@H]2CC[C@@H](C(=O)ON3CCCCC3)[C@H](OC)C2)CC(=O)[C@H](C)/C=C(\C)[C@@H](O)[C@@H](OC)C(=O)[C@H](C)C[C@H](C)CCCC/C=C/1C,442,-,>100 µg/mL
O=S(=O)(Nc1ccc2c(c1)Sc1ccccc1O2)c1ccc(-[n+]2c(-c3ccccc3)cc(-c3ccccc3)cc2-c2ccccc2)cc1,C316,-,3 µg/mL
CCCCCCCCCCCCCCCCCC(=O)NC(CCCN)C(N)=O,ATCC 24433,broth dilution,>100 µg/mL
Clc1ccc(C(c2c[nH]cc2-c2ccc(-c3ccccc3)cc2)n2ccnc2)c(Cl)c1,-,-,4.3 µg/mL
N=C(N)c1ccc(N/N=C/c2cc3cc(C(=N)N)ccc3o2)cc1,-,-,30 µg/mL
c1ccc(C(Cn2ccnc2)OCc2cccc3ccccc23)cc1,CA2,-,128 µg/mL
Cc1ccccc1C(Cc1ccc(Cl)cc1Cl)Cn1ccnc1,-,-,100 µg/mL
O=S(=O)(Nc1ccc2c(c1)Sc1ccccc1O2)c1c(F)c(F)c(F)c(F)c1F,C316,-,0.5 µg/mL
CC(=O)C1CC([C@H]2O[C@@H]3OC(C)(C)O[C@@H]3[C@H]2OCc2ccccc2)=NO1,-,-,>50 µg/mL
CS(=O)c1nnc(-c2cc([N+](=O)[O-])ccc2-c2ccco2)s1,ATCC 10231,-,12.5 µg/mL
N=C(N)c1ccc2oc(-c3ccc(N)cc3)cc2c1,-,-,>60 µg/mL

The first 7 rows once more:

compound | strain | method | value
C[C@@H]1C(=O)N(c2ccccc2)C(=O)[C@@H]1C | ATCC 10231 | broth dilution / turbidity | 31.3 µg/mL
CCCCCCCCCCCCCCCC(=O)NC(CCCN)C(=O)NC(CCCN)C(=O)NC(CCCN)C(N)=O | ATCC 24433 | broth dilution | 3.1 µg/mL
Fc1ccc(-n2ccc(C(c3ccc(Cl)cc3)n3ccnc3)c2)cc1 | - | - | 2.7 µg/mL
CC1C=C(C23CC4CC(CC(C4)C2)C3)C(=O)O1 | ATCC 44859 | - | >125 µM
CCCCCCCC(=O)NC(CCCN)C(=O)NC(CCCN)C(=O)NC(CCCN)C(N)=O | ATCC 24433 | broth dilution | >100 µg/mL
CC(C)N=C(N)c1ccc2nc(-c3ccc4c(c3)Cc3cc(-c5nc6ccc(C(N)=NC(C)C)cc6[nH]5)ccc3-4)[nH]c2c1 | Isolate 2370 fluconazole-resistant | - | 1.56 µg/mL
Clc1ccc(CCC(Cn2ccnc2)c2ccc(Cl)cc2Cl)cc1 | - | - | 10 µg/mL